Compound potency records, mixed from different reports. Data source: NIAID ChemDB in PubChem.

Common to all: tests in culture; agent: Cryptococcus neoformans; endpoint: MIC

Two numbers with a dash give a range or band. Conditions beyond the fields shown may differ between rows. An empty or dashed field is not shown.

SMILES,strain or isolate,read by,result
C[C@H]1O[C@@H](Oc2ccc(-c3coc4cc(O[C@@H]5O[C@H](C)[C@H](O)[C@H](O)[C@@H]5O)ccc4c3=O)cc2)[C@@H](O)[C@@H](O)[C@H]1O,B42419,-,3 µg/mL
C[C@H]1[C@@H](OCCCCO)O[C@@H]2O[C@]3(C)CC[C@H]4[C@H](C)CC[C@@H]1C24OO3,ATCC 90113,-,>50 µg/mL
CCC(C)n1ncn(-c2ccc(N3CCN(c4ccc(OC[C@H]5CO[C@](Cn6cncn6)(c6ccc(Cl)cc6Cl)O5)cc4)CC3)cc2)c1=O,-,-,0.016–1 µg/mL
O=C(/C=C/c1ccc2ccccc2c1)c1ccccc1,ATCC 32264,-,>50 µg/mL
C=C1[C@@H](OCCO)O[C@@H]2O[C@]3(C)CC[C@H]4[C@H](C)CC[C@@H]1C24OO3,ATCC 90113,-,>50 µg/mL
Cc1cc(C)c(C(=O)/C=C/c2cc3ccccc3nc2Cl)o1,ATCC 32264,-,>50 µg/mL
COc1c(CC=C(C)C)c(O)cc2occ(-c3ccc4c(c3)OCO4)c(=O)c12,IP 90526,broth dilution,>100 µg/mL
COc1cc(O)c2c(c1)C(=O)c1c(cc3c(c1O)-c1c(cc(C)c(C(=O)NC(CO)C(=O)O)c1O)[C@H](OC1OC(C)C(O)C(OC4OCC(O)C(O)C4O)C1O)C3O)C2=O,D49,-,3.1 µg/mL
COc1cc2cc(/C=C/C(=O)c3ccccc3)c(Cl)nc2cc1OC,ATCC 32264,-,>50 µg/mL
CC1=COC2OC3(C)CCC4[C@H](C)CCC1[C@@]24O3,ATCC 90113,-,>50 µg/mL
CO/C1=C\C(C)=C\[C@@H](C)[C@@H](O)[C@@H](C)C/C(C)=C/C=C/[C@H](OC)[C@@H]([C@@H](C)[C@@H](O)[C@H](C)[C@@]2(O)C[C@@H](O)[C@H](C)[C@@H](C(C)C)O2)OC1=O,H99,-,>62.2 µg/mL
N#CC(C#N)C(CC(=O)c1ccccc1)c1ccc(Cl)cc1Cl,ATCC 32264,-,>50 µg/mL
CCC(C)CC(C)CCCCCCCCC(=O)N[C@H]1C[C@@H](O)[C@H](NCCN)NC(=O)[C@@H]2[C@@H](O)CCN2C(=O)[C@H]([C@H](O)CCN)NC(=O)[C@H]([C@H](O)[C@@H](O)c2ccc(O)cc2)NC(=O)[C@@H]2C[C@@H](O)CN2C(=O)[C@H]([C@@H](C)O)NC1=O,-,-,2–8 µg/mL
CC(=O)O[C@@H]1C[C@]2(C)C3=C(CC[C@H]2C(C)(C)[C@H]1O[C@@H]1C[C@H](CO)[C@@H](O)[C@H](O)[C@H]1O)[C@@]1(C)CC[C@](C)([C@H](C)C(C)C)[C@@H](C(=O)O)[C@]1(C)CC3,YC203,-,16 µg/mL
c1ccc(CCC[n+]2c3ccccc3cc3[nH]c4ccccc4c32)cc1,ATCC 52657,-,15.6 µg/mL
C=C(Cl)/C=C/[C@H](O)CC(=C)C[C@H]1OC2[C@@H](O)[C@]3(O)C[C@@H](O)[C@H](C)[C@H](CCC/C=C\[C@@H]4C[C@@H](O)C[C@]5(C[C@H](OC)CC(CC(=O)[C@@H](C)[C@H](OC(C)=O)[C@@H](C)C(=C)C[C@@H]6C[C@@](C)(O)C[C@]7(C[C@H](OC(C)=O)CC(CC(=O)O[C@@H]([C@@H]1O)[C@H]2C)O7)O6)O5)O4)O3,ATCC90112,-,3.12 µg/mL
COc1ccc(/C=C/C(=O)c2ccccc2)c(OC)c1,ATCC 32264,-,>50 µg/mL
c1ccc2c(c1)cc1[nH]c3ccccc3c1[n+]2CC1CCCC1,ATCC 52657,-,62.5 µg/mL
CN[C@@H]1[C@H](O[C@@H]2OC[C@@H](O)[C@H](O)[C@H]2O)[C@@H](O)[C@H](O[C@H]2c3cc(C)c(C(=O)N[C@@H](CC(=O)O)C(=O)O)c(O)c3-c3c(cc4c(c3O)C(=O)c3cc(OC)cc(O)c3C4=O)[C@@H]2O)O[C@@H]1C,IAM 4514,-,>100 µg/mL
C=C1C(=O)O[C@@H]2O[C@]3(C)CC[C@H]4[C@H](C)CC[C@@H]1C24OO3,ATCC 90113,-,>50 µg/mL
CN[C@@H]1[C@H](O[C@@H]2OC[C@@H](O)[C@H](O)[C@H]2O)[C@@H](O)[C@H](O[C@H]2c3cc(C)c(C(=O)NCCC(=O)O)c(O)c3-c3c(cc4c(c3O)C(=O)c3cc(OC)cc(O)c3C4=O)[C@@H]2O)O[C@@H]1C,IAM 4514,-,>100 µg/mL
CCC(C)CC(C)CCCCCCCCC(=O)N[C@H]1C[C@@H](O)[C@H](NCCN)NC(=O)[C@@H]2[C@@H](O)CCN2C(=O)[C@H]([C@H](O)CCN)NC(=O)[C@H]([C@H](O)[C@@H](O)c2ccc(O)cc2)NC(=O)[C@@H]2C[C@@H](O)CN2C(=O)[C@H]([C@@H](C)O)NC1=O,H99,-,12.5 µg/mL
Cc1noc(NS(=O)(=O)c2ccc(N)cc2)c1C,-,-,0.31–320 µg/mL
COc1cc2occ(-c3ccc(O)cc3)c(=O)c2c(OC)c1CC=C(C)C,IP 90526,broth dilution,50 µg/mL
CN[C@@H]1[C@H](O[C@@H]2OC[C@@H](O)[C@H](O)[C@H]2O)[C@@H](O)[C@H](O[C@H]2c3cc(C)c(C(=O)O)c(O)c3-c3c(cc4c(c3O)C(=O)c3cc(OC)cc(O)c3C4=O)[C@@H]2O)O[C@@H]1C,IAM 4514,-,>100 µg/mL
CN(Cc1ccc(C(C)(C)C)cc1)Cc1cccc2ccccc12,4 strains,-,1.17 µg/mL
COc1ccc(C(=O)CC(c2ccc3ccccc3c2)C(C#N)C#N)c(OC)c1,ATCC 32264,-,>50 µg/mL
CN[C@@H]1[C@H](O[C@@H]2OC[C@@H](O)[C@H](O)[C@H]2O)[C@@H](O)[C@H](O[C@H]2c3cc(C)c(C(=O)N[C@H](CN)C(=O)O)c(O)c3-c3c(cc4c(c3O)C(=O)c3cc(OC)cc(O)c3C4=O)[C@@H]2O)O[C@@H]1C,IAM 4514,-,1.6 µg/mL
C=CC[C@@H]1/C=C(/C)C[C@H](C)C[C@H](OC)[C@H]2O[C@@](O)(C(=O)C(=O)N3CCCC[C@H]3C(=O)O[C@H](/C(C)=C/[C@@H]3CC[C@@H](O)[C@H](OC)C3)[C@H](C)[C@@H](O)CC1=O)[C@H](C)C[C@@H]2OC,H99 ΔFRR1 mutant,-,>25 µg/mL
CC[C@@H]([C@H](C)O)n1ncn(-c2ccc(N3CCN(c4ccc(OC[C@@H]5CO[C@@](Cn6cncn6)(c6ccc(F)cc6F)C5)cc4)CC3)cc2)c1=O,-,-,0.002–0.25 µg/mL
c1ccc(C[n+]2c3ccccc3cc3[nH]c4ccccc4c32)cc1,ATCC 52657,-,>250 µg/mL
COc1cccc(/C=C/C(=O)c2ccc(Br)cc2)c1OC,ATCC 32264,-,>50 µg/mL
c1ccc2nc3c(cc2c1)[nH]c1ccccc13,ATCC 52657,-,>250 µg/mL
C[C@@H](c1nc(-c2ccc(C#N)cc2)cs1)[C@](O)(Cn1cncn1)c1cc(F)ccc1F,-,-,0.002–0.5 µg/mL
c1ccc2c(c1)cc1[nH]c3ccccc3c1[n+]2CC1CCCCC1,ATCC 52657,-,62.5 µg/mL
CC(=O)OC1C=COC=C2CC34SSC5(CC6=COC=CC(OC(C)=O)C6N5C3=O)C(=O)N4C21,E138,-,10 µg/mL
CCCCC[n+]1c2ccccc2cc2[nH]c3ccccc3c21,ATCC 52657,-,31.2 µg/mL
CN[C@@H]1[C@H](O[C@@H]2OC[C@@H](O)[C@H](O)[C@H]2O)[C@@H](O)[C@H](O[C@H]2c3cc(C)c(C(=O)N4CCC[C@@H]4C(=O)O)c(O)c3-c3c(cc4c(c3O)C(=O)c3cc(OC)cc(O)c3C4=O)[C@@H]2O)O[C@@H]1C,IAM 4514,-,>100 µg/mL

Repeating the final 3 entries:

SMILES	strain or isolate	read by	result
CC(=O)OC1C=COC=C2CC34SSC5(CC6=COC=CC(OC(C)=O)C6N5C3=O)C(=O)N4C21	E138	-	10 µg/mL
CCCCC[n+]1c2ccccc2cc2[nH]c3ccccc3c21	ATCC 52657	-	31.2 µg/mL
CN[C@@H]1[C@H](O[C@@H]2OC[C@@H](O)[C@H](O)[C@H]2O)[C@@H](O)[C@H](O[C@H]2c3cc(C)c(C(=O)N4CCC[C@@H]4C(=O)O)c(O)c3-c3c(cc4c(c3O)C(=O)c3cc(OC)cc(O)c3C4=O)[C@@H]2O)O[C@@H]1C	IAM 4514	-	>100 µg/mL